Pooled drug test results. Numbers come from NIAID ChemDB, via PubChem.

Common to all: tests in culture; species: Aspergillus fumigatus

Blank or dashed fields: not listed here. MIC50, MIC90 and the like: level of inhibition, or share of isolates inhibited. Lines come from different laboratories, so protocols vary. ECn is the concentration giving n% inhibition of infection, replication or growth. a–b is a range or a potency band.

COC(=O)N[C@H](C(=O)NN(CC[C@@]1(Cc2ccccc2)C(=O)N(C2c3ccccc3C[C@H]2O)C[C@H]1O)Cc1ccc(-c2ccncc2)cc1)C(C)(C)C ; endpoint: MIC ; strain or isolate: RCMB 002003 ; method: agar ; value: 15.6 µg/mL
CCCCCCCCCCCCC(=O)OC1CCN(CC(O)(Cn2cncn2)c2ccc(F)cc2F)CC1 ; endpoint: MIC80 ; strain or isolate: 0504656 ; method: broth dilution ; value: 30.8 µM
Clc1ccc(COC(Cn2ccnc2)c2ccc(Cl)cc2Cl)c(Cl)c1 ; endpoint: Mean MIC ; strain or isolate: 2 strains ; value: 2.83 µg/mL
O=C(c1ccccc1)C(c1ccccc1)n1ccnc1 ; endpoint: MIC90 ; method: agar ; value: >256 µg/mL
CN1CCN(c2n[nH]c(N3C(=O)CS[C@@H]3c3ccc4c(c3)OCO4)n2)CC1 ; endpoint: MIC80 ; strain or isolate: 165.86 ; method: broth dilution ; value: 50 µg/mL
Cc1ccc(-c2cc(C=O)no2)cc1 ; endpoint: EC50 ; strain or isolate: Clinical isolates ; value: 49.86 µg/mL
COC(=O)N[C@H](C(=O)NN(CC[C@@]1(Cc2ccccc2)C(=O)N(C2c3ccccc3C[C@H]2O)C[C@@H]1O)Cc1ccc(-c2ccncc2)cc1)C(C)(C)C ; endpoint: MIC ; strain or isolate: RCMB 002003 ; method: agar ; value: 7.8 µg/mL
Cc1onc(-c2ccc(Cl)cc2)c1C=O ; endpoint: EC50 ; strain or isolate: Clinical isolates ; value: >50 µg/mL
Clc1ccc(C(c2ccccc2)n2cnc3ccccc32)cc1 ; endpoint: MIC90 ; method: agar ; value: >256 µg/mL
CC(C)CC(O)C(=O)O ; endpoint: MFC100 ; strain or isolate: MRCM 32552 ; method: broth dilution / visual reading ; value: 18000 µg/mL
CCC(C)CC(C)CCCCCCCCC(=O)N[C@H]1C[C@@H](O)[C@H](NCCN)NC(=O)[C@@H]2[C@@H](O)CCN2C(=O)[C@H]([C@H](O)CCN)NC(=O)[C@H]([C@H](O)[C@@H](O)c2ccc(O)cc2)NC(=O)[C@@H]2C[C@@H](O)CN2C(=O)[C@H]([C@@H](C)O)NC1=O ; endpoint: Geometric mean MEC ; strain or isolate: 26 isolates ; value: 0.28 µg/mL
CCC(C)n1ncn(-c2ccc(N3CCN(c4ccc(OC[C@H]5CO[C@](Cn6cncn6)(c6ccc(Cl)cc6Cl)O5)cc4)CC3)cc2)c1=O ; endpoint: MIC80 ; strain or isolate: 0504656 ; method: broth dilution ; value: 1.417 µM
C[C@@H](c1ncncc1F)[C@](O)(Cn1cncn1)c1ccc(F)cc1F ; endpoint: MIC90 ; strain or isolate: 150 clinical isolates ; value: 0.5 µg/mL
O=C(c1ccccc1)C(c1ccccc1)n1cnc2ccccc21 ; endpoint: MIC90 ; method: agar ; value: 64 µg/mL
COC(=O)N[C@H](C(=O)NN(CC[C@]1(Cc2ccccc2)C(=O)N(C2c3ccccc3C[C@H]2O)C[C@@H]1O)Cc1ccc(Br)cc1)C(C)(C)C ; endpoint: MIC ; strain or isolate: RCMB 002003 ; method: agar ; value: 7.8 µg/mL
O=Cc1cc(-c2ccc(Cl)cc2)no1 ; endpoint: EC50 ; strain or isolate: Clinical isolates ; value: 21.96 µg/mL
Clc1ccc(C(c2ccccc2)n2cncn2)cc1 ; endpoint: MIC90 ; method: agar ; value: 32 µg/mL
CCN1CCC(O)(/C=C/c2ccc(Cl)cc2)C(C(=O)/C=C/c2ccc(Cl)cc2)C1 ; endpoint: Mean MIC ; strain or isolate: 28 strains (itraconazole-resistant) ; value: 5.1 µg/mL
Nc1ncccc1-c1cc(Cc2ccc(COc3ccccn3)cc2)no1 ; endpoint: MIC50 ; strain or isolate: IFM 51126 ; method: broth dilution ; conditions: 30% human serum ; value: 1 µg/mL
C[C@H]1[C@H](O)[C@@H](C)/C=C/C=C/C=C/C=C/C=C/C=C/C=C/[C@H](O[C@@H]2O[C@H](C)[C@@H](O)[C@H](N)[C@@H]2O)C[C@@H]2O[C@](O)(C[C@@H](O)C[C@@H](O)CC[C@H](O)[C@@H](O)C[C@@H](O)CC(=O)O[C@H]1C)C[C@H](O)[C@H]2C(=O)O ; endpoint: MFC ; strain or isolate: Clinical isolate ; method: XTT ; value: 1–2 µg/mL
CCCC(C)(C)C(=O)OC1CCN(CC(O)(Cn2cncn2)c2ccc(F)cc2F)CC1 ; endpoint: MIC80 ; strain or isolate: 0504656 ; method: broth dilution ; value: 9.17 µM
CCCCCOc1ccc(-c2ccc(-c3ccc(C(=O)N[C@H]4C[C@@H](O)[C@@H](O)NC(=O)[C@@H]5[C@@H](O)[C@@H](C)CN5C(=O)[C@H]([C@H](C)O)NC(=O)[C@H]([C@H](O)[C@@H](O)c5ccc(O)cc5)NC(=O)[C@@H]5C[C@@H](O)CN5C(=O)[C@H]([C@H](C)O)NC4=O)cc3)cc2)cc1 ; endpoint: MFC90 ; strain or isolate: 35 isolates ; value: 1 µg/mL
O=C(c1ccccc1)C(c1ccccc1)n1nnc2ccccc21 ; endpoint: MIC90 ; method: agar ; value: >256 µg/mL
COC(=O)N[C@H](C(=O)NN(CC[C@@]1(Cc2ccccc2)C(=O)N(C2c3ccccc3C[C@H]2O)C[C@@H]1O)Cc1ccc(Br)cc1)C(C)(C)C ; endpoint: MIC ; strain or isolate: RCMB 002003 ; method: agar ; value: 15.6 µg/mL
c1ccc(C(c2ccccc2)n2cnc3ccccc32)cc1 ; endpoint: MIC90 ; method: agar ; value: >256 µg/mL
COC(=O)[C@H]1[C@@H]2C[C@@H](O[C@@H]3O[C@H](C)[C@@H](O)[C@H](N)[C@@H]3O)/C=C/C=C/C=C/C=C/C=C/C=C/C=C/[C@H](C)[C@@H](O)[C@H](C)[C@H](C)OC(=O)C[C@H](O)C[C@H](O)[C@@H](O)CC[C@H](O)C[C@H](O)C[C@](O)(C[C@@H]1O)O2 ; endpoint: Geometric mean MIC ; strain or isolate: 35 isolates ; value: 1 µg/mL
CCC(C)n1ncn(-c2ccc(N3CCN(c4ccc(OC[C@H]5CO[C@](Cn6cncn6)(c6ccc(Cl)cc6Cl)O5)cc4)CC3)cc2)c1=O ; endpoint: MIC100 ; strain or isolate: MRCM 24290 ; method: broth dilution / visual reading ; value: >8 µg/mL
c1ccc(C(c2ccccc2)n2cncn2)cc1 ; endpoint: MIC90 ; method: agar ; value: 32 µg/mL
COC(=O)N[C@H](C(=O)NN(CC[C@]1(Cc2ccccc2)C(=O)N(C2c3ccccc3C[C@H]2O)C[C@H]1O)Cc1ccc(Br)cc1)C(C)(C)C ; endpoint: MIC ; strain or isolate: RCMB 002003 ; method: agar ; value: 7.8 µg/mL
O=C(c1ccccc1)C(c1ccccc1)n1cncn1 ; endpoint: MIC90 ; method: agar ; value: 128 µg/mL
O=C(/C=C/c1ccc([N+](=O)[O-])cc1)OC1CCN(CC(O)(Cn2cncn2)c2ccc(F)cc2F)CC1 ; endpoint: MIC80 ; strain or isolate: 0504656 ; method: broth dilution ; value: 0.487 µM
C[C@H]1[C@H](O)[C@@H](C)/C=C/C=C/C=C/C=C/C=C/C=C/C=C/[C@H](O[C@@H]2O[C@H](C)[C@@H](O)[C@H](N)[C@@H]2O)C[C@@H]2O[C@](O)(C[C@@H](O)C[C@@H](O)CC[C@H](O)[C@@H](O)C[C@@H](O)CC(=O)O[C@H]1C)C[C@H](O)[C@H]2C(=O)O ; endpoint: MFC ; strain or isolate: Clinical isolate ; method: visual reading ; value: 2 µg/mL
Cc1ccc(C(C)C)cc1O ; endpoint: MLC ; strain or isolate: CECT2071 ; value: 0.32 µg/mL
COC(=O)N[C@H](C(=O)NN(CC[C@@]1(Cc2ccccc2)C(=O)N(C2c3ccccc3C[C@H]2O)C[C@H]1O)Cc1ccc(Br)cc1)C(C)(C)C ; endpoint: MIC ; strain or isolate: RCMB 002003 ; method: agar ; value: 7.8 µg/mL
O=C(/C=C/c1cccc(Cl)c1)OC1CCN(CC(O)(Cn2cncn2)c2ccc(F)cc2F)CC1 ; endpoint: MIC80 ; strain or isolate: 0504656 ; method: broth dilution ; value: 1.991 µM
C[C@@H](c1ncncc1F)[C@](O)(Cn1cncn1)c1ccc(F)cc1F ; endpoint: MIC90 ; method: broth dilution ; value: 0.5 µg/mL
CC1=CC[C@@H]2[C@H](C1)C2(C)C ; endpoint: MLC ; strain or isolate: ATCC 46645 ; value: 0.32 µg/mL
CC(=O)N1CCN(c2ccc(OC[C@H]3CO[C@](Cn4ccnc4)(c4ccc(Cl)cc4Cl)O3)cc2)CC1 ; endpoint: MFC ; strain or isolate: ATCC 9142 ; method: broth dilution ; value: 500 µg/mL

Again, the opening 5 rows:

SMILES	endpoint	strain or isolate	method	conditions	value
COC(=O)N[C@H](C(=O)NN(CC[C@@]1(Cc2ccccc2)C(=O)N(C2c3ccccc3C[C@H]2O)C[C@H]1O)Cc1ccc(-c2ccncc2)cc1)C(C)(C)C	MIC	RCMB 002003	agar	-	15.6 µg/mL
CCCCCCCCCCCCC(=O)OC1CCN(CC(O)(Cn2cncn2)c2ccc(F)cc2F)CC1	MIC80	0504656	broth dilution	-	30.8 µM
Clc1ccc(COC(Cn2ccnc2)c2ccc(Cl)cc2Cl)c(Cl)c1	Mean MIC	2 strains	-	-	2.83 µg/mL
O=C(c1ccccc1)C(c1ccccc1)n1ccnc1	MIC90	-	agar	-	>256 µg/mL
CN1CCN(c2n[nH]c(N3C(=O)CS[C@@H]3c3ccc4c(c3)OCO4)n2)CC1	MIC80	165.86	broth dilution	-	50 µg/mL